From US20230348573A1 (KEIO UNIVERSITY, published 2023)

What was measured:
Test in all cases: ACE2 competition, spike on 293T cells, antibody 4 µg/mL
[1] = target: T1, full-length spike protein of SARS-CoV-2 β strain (SARS-CoV-2 (β strain))
T1 construct: whole, on cells; Expressed in 293T cells

[2] = target: T2, full-length spike protein of SARS-CoV-2 γ strain (SARS-CoV-2 (γ strain))
T2 construct: whole, on cells; Expressed in 293T cells

[3] = target: T3, full-length spike protein of SARS-CoV-2 α strain (SARS-CoV-2 (α strain))
T3 construct: whole, on cells; Expressed in 293T cells

Binder | binding amount (%) of ACE2 protein [1] [%] | binding amount (%) of ACE2 protein [2] [%] | binding amount (%) of ACE2 protein [3] [%]
Ab816 (antibody, V domains shown) VH: QVQLVQSGAEVKKPGESLMISCKASGYNFRNYWIAWVRQMPGKGLEWMGIIHPGDSDIRYRPSLQGHVTISADKSITTAYLQWGSLKASDTAMYYCTRITTDADSSGLFHYWGQGTLVTVSS VL: EIVLTQSPSTLSASVGDRVTITCRASQNIYTWLAWYQRKPGKAPKVLIYKASSLESGVPSRFSGSGSGTEFTLTISSLQPDDFATYYCQQYKSAWSFGQGTKVEIK | 0.4 | 0.7 | 0.5
Ab830 (antibody, V domains shown) VH: QVQLVQSGAEVKKPGSSVKVSCKTSGGTFTNYTISWVRQAPGQGLEWMGRIIPIFDIVNYAQKFQGRVTITADKSTSTTYMELSSLRSEDTAVYYCARDGVLYDTSGYLYDAFDIWGQGTMVTVSS VL: DIQMTQSPSSLSASVGDRVTITCRASQGINNYLAWFQQKPGKAPKSLIYAASSLQSGVPPKFSGSGSGTDFTLTISSLQPEDFATYYCLHYNSYPWTFGQGTKVEIK | 4.4 | 6.7 | 1.1
Ab847 (antibody, V domains shown) VH: EVQLVQSGAEVKKPGASVKVSCKASGYTFTSYDIIWVRQATGQGLEWMGWMDPSRGTTGYAQTFQGRVTMTRDTSISTAYLELNSLTSEDTAVYYCVAHIVVLDRWFDPWGQGTLVTVSS VL: DIVMTQSPSSLSASVGDRVTITCQASQDIGNFLNWCQQKPGQAPKVLIYGASNLETGVPSRFSGSGSGTDFTFTISSLQPEDIATYYCQHYDNFPPRFTFGQGTKLDIK | 0.3 | 0.4 | 0.3
Ab863 (antibody, V domains shown) VH: EVQLVQSGAEVKKPGASVKVSCQASGYTFITYYMHWVRQAPGQGLEWMGIINPDGGSISYAQKFQGRVTMTRDTSTSTVYMELSSLRSEDTAVYYCARGLSPTFSSSWFDNWGLGTLVTVSS VL: DVVMTQSPATLSVSPGERATLSCRASQSVSSNLAWYQQKPGQAPRLLIYGASTRDTGIPARFSGSGSGTEFTLTISSLQSEDFAVYFCQQYKNWLLTFGGGTKVEIK | 3.4 | 5.3 | 8.3
Ab864 (antibody, V domains shown) VH: EVQLVESGGGLVQPGRSLRLSCAASGFTFDDYAMHWVRQVPGKGLEWVSGISWNKGNIDYADSVKGRFTISRDNAKNSLYLQMNSLRPEDTGLYYCAKDCHYDSPGYFPNCLHSWGQGTLVTVSS VL: EIVMTQSPSSLSASVGDRVTITCRASQGINTYLAWYQQKPGKAPKLLIYTASTLQSGVPSRFSGSGSGTDFTLTISSLQPEDFATYYCQQVHSYPLTFGGGTKVEIK | 1.3 | 2.4 | 0.4
Ab315 (antibody, V domains shown) VH: EVQLLESGGGLIQPGGSLRLSCAASGLIVSSNYMSWVRQAPGKGLEWVSVIYSGGSTYYADSVKGRFISSRDNSKNTLYLQMNSLRAEDTAVYYCARGELDLPYGMDVWGQGTTVTVSS VL: QAVVTQPPSVSAAPGQKVTISCSGSSSNIGNNYVSWYQQLPGTAPKLLICDTNKRPSGIPDRFSGSKSGTSATLGITGLQTGDEADYYCGTWDRSLSAGVFGGGTKLTVL | 88.6 | 99.3 | 4.5
